Measured values from several laboratories, pooled; numbers as filed in NIAID ChemDB.

All rows: whole-cell or culture tests; organism: Mycobacterium tuberculosis

a–b is a range or a potency band. Blank or dashed fields: not listed here. MIC50, MIC90 and the like: level of inhibition, or share of isolates inhibited. MIC bound comes from a single tested concentration. ECn: concentration that inhibits the pathogen or its effect by n%. Conditions beyond the fields shown may differ between rows. Inhibition is in % at the dose shown (toxicity tests: loss of growth or viability).

compound	read by	cells	dose	read-out	conditions	strain	value
O=C(c1ccco1)N1CCN(C(=O)c2ccco2)CC1	BACTEC			MIC bound		H37Rv	>12.5 µg/mL
CCCCCCCCCCCCCCC[C@H]1CC=CC(=O)O1				MIC		H37Rv	>128 µg/mL
CCC(CO)NC[C@H]1N[C@@H](CO)[C@@H](O)[C@@H]1O				MIC		H37Ra	>128 µg/mL
Cc1nc2sccn2c1C(=O)NC(=O)Nc1ccc(Cl)cc1	BACTEC		12.5 µg/mL	inhibition		H37Rv	0%
CCCCCCCCCCCCCCCCSC[C@@H]1N[C@H](CO)[C@@H](O)[C@@H]1O				MIC		H37Ra	16–64 µg/mL
CCn1cc(C(=O)O)c(=O)c2cc(F)c(N3CCN(CN4C(=O)C(=O)c5cc(Br)ccc54)CC3)cc21	BACTEC			MIC		H37Rv	<12.5 µg/mL
O=C(Oc1cc(Cl)ccc1C(=O)Nc1cccc(Br)c1)c1cnccn1	broth dilution			MIC100	14 d	H37Rv	1 µM
O=CNc1ccc(S(=O)(=O)c2ccc(NC=O)cc2)cc1	BACTEC			MIC bound		H37Rv	>12.8 µg/mL
CCC(CO)NC[C@H]1O[C@H](CO)[C@@H](O)[C@@H]1O				MIC		H37Ra	>128 µg/mL
CC1COc2c(N3CCN(C)CC3)c(F)cc3c(=O)c(C(=O)O)cn1c23				MIC50			3.13 µg/mL
O=C(n1c2ccccc2c2n[nH]c(=S)nc21)C(F)(F)F	BACTEC		12.5 µg/mL	inhibition		H37Rv	0%
CN(C)CCC(c1ccc(Br)cc1)c1ccccn1				MIC		H37Ra	64 µg/mL
CCn1cc(C(=O)O)c(=O)c2cc(F)c(N3CCN(Cn4c(O)c(N=NC(=O)c5ccncc5)c5ccccc54)CC3)cc21	BACTEC			MIC		H37Rv	<6.25 µg/mL
CC12C[C@H]3OC(=O)[C@@H]1COC14OC5([C@H]2C1=O)[C@@](O)(CC[C@H]1[C@H]4CC=C2CC=CC(=O)[C@@]21C)C(=O)O[C@@]35C				MIC		H37Rv	>128 µg/mL
CCn1cc(C(=O)O)c(=O)c2cc(F)c(N3CCN(Cn4c(O)c(N=NC(N)=O)c5cc(Cl)ccc54)CC3)cc21	BACTEC		12.5 µg/mL	inhibition		H37Rv	94%
Cc1cccc(C(N)=Nc2nc(-c3ccccn3)cc3ccccc23)c1				MIC		J-3064	1 µg/mL
CCCCCCCCCCCCCCC[C@H]1CCCC(=O)O1				MIC		H37Rv	>128 µg/mL
CC(=O)Nc1ccc(/C=C2N=C(/C=C/c3ccccc3)OC\2=O)cc1	BACTEC			MIC bound		H37Rv	>12.5 µg/mL
CCCCCCCCCSC[C@@H]1N[C@H](CO)[C@@H](O)[C@@H]1O				MIC		H37Ra	32–128 µg/mL
Cc1c(CN2CCN(C)CC2)cc(-c2cccc3ccccc23)n1-c1ccccc1				MIC		103471	>16 µg/mL
Cc1cc(O)c2c(c1)C(=O)C=CC2=O				MIC		H37Rv	50 µg/mL
CCn1cc(C(=O)O)c(=O)c2cc(F)c(N3CCN(Cn4c(O)c(N=NC(N)=O)c5ccccc54)CC3)cc21	BACTEC		12.5 µg/mL	inhibition		H37Rv	86%
CC(C)(O)CC[C@@H](O)[C@](C)(O)[C@H]1CC[C@@]2(O)C3=CC(=O)[C@@H]4C[C@@H](O)[C@@H](O)C[C@]4(C)[C@H]3CC[C@]12C	broth dilution			MIC90			14.4 µg/mL
O=C(Oc1cc(Cl)ccc1C(=O)Nc1ccc(Cl)c(Cl)c1)c1cnccn1	broth dilution			MIC100	14 d	H37Rv	1 µM
CCCCCCCCCCCCCCC[C@H](O)CCCC[C@H]1CC=CC(=O)O1				MIC		H37Rv	24.08 µg/mL
Cc1c(CN2CCN(C)CC2)cc(-c2ccccc2)n1-c1ccc(F)cc1				MIC			1 µg/mL
CN[C@@H]1[C@H](O[C@H]2[C@H](O[C@H]3[C@H](O)[C@@H](O)[C@H](N=C(N)N)[C@@H](O)[C@@H]3N=C(N)N)O[C@@H](C)[C@]2(O)C=O)O[C@@H](CO)[C@H](O)[C@H]1O	resazurin			EC50		ATCC 27294	6.25 µg/mL
C/C(=C\CO)CCC[C@H](C)CCC[C@H](C)CCCC(C)C				MIC		H37Rv	32 µg/mL
CCn1c(S)c(N=NC(N)=[NH2+])c2ccccc21				MIC		CNCTC TBC1/47	125 µM
CC(C)(C)c1cc(C(C)(C)C)c2oc(-c3ccn[nH]3)nc2c1	BACTEC		6.25 µg/mL	inhibition		H37Rv	72%
Cc1ccc(/C=C/C(=O)/C=C/c2ccc(C)o2)o1	BACTEC		12.5 µg/mL	inhibition		H37Rv	91%
Cc1c(CN2CCSCC2)cc(-c2ccccc2Cl)n1-c1ccccc1				MIC		103471	16 µg/mL
CO[C@H]1/C=C/O[C@@]2(C)Oc3c(C)c(O)c4c(O)c(cc(OCC(=O)NN)c4c3C2=O)NC(=O)/C(C)=C\C=C\[C@H](C)[C@H](O)[C@@H](C)[C@@H](O)[C@@H](C)[C@H](OC(C)=O)[C@@H]1C				MIC		H37Rv	0.15 µg/mL
Cc1ccc(NCCN(C)CC(C)O)c2c(=O)c3ccccc3sc12	BACTEC		12.5 µg/mL	inhibition		H37Rv	99%
Cc1c(CN2CCSCC2)cc(-c2ccccc2)n1-c1ccccc1F				MIC		103471	8 µg/mL
CCCCCCCCCCCCS(=O)C[C@@H]1N[C@H](CO)[C@@H](O)[C@@H]1O				MIC		H37Ra	32–64 µg/mL
CN1CCC(=C2c3ccccc3CC(=O)c3sccc32)CC1				MIC		H37Ra	128 µg/mL
O=C(Nc1ccc(Cl)c(Cl)c1)c1cc(Cl)ccc1O	broth dilution			MIC100	14 d	H37Rv	4 µM
Cc1ccc(-c2cnnc(N3CCC(c4cccc(F)c4)C3)n2)o1	resazurin			MIC		H37Rv	38.9 µM
CC(C)=NNC1=NC(C)(C)P(=O)(NNc2ncccn2)S1	BACTEC			MIC bound		H37Rv	>12.5 µg/mL
CC(C)(C)c1cc(C(C)(C)C)c2oc(-c3ccccn3)nc2c1	BACTEC		6.25 µg/mL	inhibition		H37Rv	79%
CC1CC(C)(CO)Oc2oc3ccccc3c(=O)c21	BACTEC			MIC bound		H37Rv	>12.5 µg/mL
CCCCCCCCCCCCCCC[C@H](O)C[C@H]1CC=CC(=O)O1	fluorescence	VERO	128 µg/mL	inhibition		H37Rv	98.9%
Cc1ccc(-c2nc3cc(C(C)(C)C)cc(C(C)(C)C)c3o2)cc1	BACTEC		6.25 µg/mL	inhibition		H37Rv	<90%
Cc1c(CN2CCSCC2)cc(-c2ccccc2)n1-c1ccc(F)cc1				MIC			3 µg/mL
CN1C(=S)C(=O)c2ccccc21				MIC		CNCTC TBC1/47	16 µM
O=C(Nc1ccccc1)c1ccccc1O	broth dilution			MIC100	14 d	H37Rv	62.5 µM
C=CCC1=C(C)C(OC(=O)/C=C/c2ccco2)CC1=O	BACTEC			MIC bound		H37Rv	>12.5 µg/mL
NCC[C@H](O)C(=O)N[C@@H]1C[C@H](N)[C@@H](O[C@H]2O[C@H](CN)[C@@H](O)[C@H](O)[C@H]2O)[C@H](O)[C@H]1O[C@H]1O[C@H](CO)[C@@H](O)[C@H](N)[C@H]1O				MIC		Isolate CKN64-301 (rrs A1401G mutation)	>64 µg/mL
O=C(O)CNC1CCS(=O)(=O)C1	broth dilution			EC50			8 µg/mL
CN1CCC[C@@H]1CCO[C@](C)(c1ccccc1)c1ccc(Cl)cc1				MIC		H37Ra	8 µg/mL
CCn1cc(C(=O)O)c(=O)c2cc(F)c(N3CCN(CN4C(=O)C(=O)c5cc(Cl)ccc54)CC3)cc21	BACTEC			EC50		H37Rv	<12.5 µg/mL
Cc1c(Cn2cnc3c(C(=O)NCC(F)F)cccc32)ncnc1N(C)C	visual reading / absorbance			MIC80		H37Rv	<0.39 µM
COc1ccc(C(=O)CN2CCN(CC(=O)c3ccc(OC)cc3)CC2)cc1	BACTEC			MIC		H37Rv	≥12.8 µg/mL
CCCCN1[C@H](CO)[C@@H](O)[C@H](O)[C@@H]1CO				MIC		H37Ra	>128 µg/mL
O=C(Oc1cc(Br)ccc1C(=O)Nc1ccc(C(F)(F)F)cc1)c1ccccc1	broth dilution			MIC100	14 d	H37Rv	1 µM
Cc1ccc(N=Nc2c(O)c(C(=O)Nc3ccccc3)cc3ccccc23)c([N+](=O)[O-])c1	BACTEC			MIC		H37Rv	≥12.5 µg/mL
CC[C@H](CC[C@@H](C)[C@H]1CC[C@H]2[C@@H]3CC=C4C[C@@H](O)CC[C@]4(C)[C@H]3CC[C@]12C)C(C)C				MIC		H37Rv	128 µg/mL
S=C=NP1(N=C=S)=NP(N=C=S)(N=C=S)=NP(N=C=S)(N=C=S)=N1	BACTEC		128 µg/mL	inhibition		H37Rv	100%
CCOC(=O)C(=O)N=Nc1c(S)n(CC)c2ccccc12				MIC		CNCTC TBC1/47	>1000 µM
CN(C)CCCN1c2ccccc2CCc2ccccc21				MIC		H37Ra	32 µg/mL
COc1cc2oc(=O)ccc2cc1C1OC(=O)C2OC21C	BACTEC		12.5 µg/mL	inhibition		H37Rv	13%
CN(C)CCOC(C)(c1ccccc1)c1ccc(Cl)cc1				MIC		H37Ra	16 µg/mL
CC(C)(C)c1cc(C(C)(C)C)c2oc(-c3ccc(Br)cc3)nc2c1	BACTEC			MIC		H37Rv	6.25 µg/mL
Cc1c(CN2CCSCC2)cc(-c2ccccc2)n1-c1cccc2ccccc12				MIC		103471	>16 µg/mL
CN1CCC(=C2c3ccccc3C=Cc3ccccc32)CC1				MIC		H37Rv	32 µg/mL
CCN(CC)CCCC(C)Nc1cc(C)nc(Nc2nc3cc(Cl)c(Cl)cc3[nH]2)n1	BACTEC			MIC bound		H37Rv	≤12.5 µg/mL
NC(=S)N=Nc1c(S)n(-c2ccccc2)c2ccccc12				MIC		CNCTC TBC1/47	16 µM
CC[C@H](/C=C/[C@@H](C)[C@H]1CC[C@H]2[C@@H]3C(=O)C=C4C[C@@H](O)CC[C@]4(C)[C@H]3CC[C@]12C)C(C)C	broth dilution			MIC90			2.3 µg/mL
CNC(=O)N(C)c1cc(N(C)C)nc(OC)n1	BACTEC		12.5 µg/mL	inhibition		H37Rv	8%
O=C(O)C1CCCCC1OC1CCCCC1O	broth dilution			MIC90			2.07 µg/mL
O=C(CNC(=O)Nc1ccc(Cl)c(Cl)c1)N/N=C/c1c(O)ccc2ccccc12	BACTEC			MIC bound		H37Rv	>12.5 µg/mL
CCCN(C(=O)COc1cc2c(O)c3c(O)c(C)c4c(c13)C(=O)[C@@](C)(O/C=C/[C@H](OC)[C@@H](C)[C@@H](OC(C)=O)[C@H](C)[C@H](O)[C@H](C)[C@@H](O)[C@@H](C)/C=C/C=C(/C)C(=O)N2)O4)N(C)C				MIC		H37Rv	0.15 µg/mL
O=C(NNC(=O)c1ccncc1)c1ccncc1	BACTEC	VERO		MIC		H37Rv	12.5 µg/mL
CC1(C)C(=O)NCCN1C(=O)CCCC(=O)O	broth dilution			MIC90		CDC1551	43 µg/mL
CCCCCCCCCCCCCCC[C@H](O)CCC[C@H](O)C[C@H]1CC=CC(=O)O1				MIC		H37Rv	48.23 µg/mL
CC[C@@H](CO)NC[C@@H]1O[C@H](CO)[C@@H](O)[C@@H]1O				MIC		H37Ra	>128 µg/mL
CCCN(CC)C(=O)COc1cc2c(O)c3c(O)c(C)c4c(c13)C(=O)[C@@](C)(O/C=C/[C@H](OC)[C@@H](C)[C@@H](OC(C)=O)[C@H](C)[C@H](O)[C@H](C)[C@@H](O)[C@@H](C)/C=C/C=C(/C)C(=O)N2)O4				MIC		H37Rv	0.09 µg/mL
CCCCS(=N)(=O)CC[C@H](N)C(=O)O	broth dilution			EC50			8 µg/mL
O=c1nnc2c3ccccc3[nH]c2n1-c1ccccc1	resazurin		6.25 µg/mL	inhibition		H37Rv	24%
CO[C@H]1/C=C/O[C@@]2(C)Oc3c(C)c(O)c4c(O)c(cc(OCC(=O)N5CCCC5)c4c3C2=O)NC(=O)/C(C)=C\C=C\[C@H](C)[C@H](O)[C@@H](C)[C@@H](O)[C@@H](C)[C@H](OC(C)=O)[C@@H]1C				MIC		H37Rv	0.01 µg/mL
CC(C)CC(NC(=O)C(Cc1c[nH]c2ccccc12)NC(=O)OC(C)(C)C)C(=O)NN	BACTEC		12.5 µg/mL	inhibition		H37Rv	3%
Cc1c(Cn2cnc3c(C(=O)NCCF)cccc32)ncnc1N(C)C	visual reading / absorbance			MIC80		H37Rv	<0.39 µM

Repeating the final 11 entries:

compound	read by	cells	dose	read-out	conditions	strain	value
CCCN(C(=O)COc1cc2c(O)c3c(O)c(C)c4c(c13)C(=O)[C@@](C)(O/C=C/[C@H](OC)[C@@H](C)[C@@H](OC(C)=O)[C@H](C)[C@H](O)[C@H](C)[C@@H](O)[C@@H](C)/C=C/C=C(/C)C(=O)N2)O4)N(C)C				MIC		H37Rv	0.15 µg/mL
O=C(NNC(=O)c1ccncc1)c1ccncc1	BACTEC	VERO		MIC		H37Rv	12.5 µg/mL
CC1(C)C(=O)NCCN1C(=O)CCCC(=O)O	broth dilution			MIC90		CDC1551	43 µg/mL
CCCCCCCCCCCCCCC[C@H](O)CCC[C@H](O)C[C@H]1CC=CC(=O)O1				MIC		H37Rv	48.23 µg/mL
CC[C@@H](CO)NC[C@@H]1O[C@H](CO)[C@@H](O)[C@@H]1O				MIC		H37Ra	>128 µg/mL
CCCN(CC)C(=O)COc1cc2c(O)c3c(O)c(C)c4c(c13)C(=O)[C@@](C)(O/C=C/[C@H](OC)[C@@H](C)[C@@H](OC(C)=O)[C@H](C)[C@H](O)[C@H](C)[C@@H](O)[C@@H](C)/C=C/C=C(/C)C(=O)N2)O4				MIC		H37Rv	0.09 µg/mL
CCCCS(=N)(=O)CC[C@H](N)C(=O)O	broth dilution			EC50			8 µg/mL
O=c1nnc2c3ccccc3[nH]c2n1-c1ccccc1	resazurin		6.25 µg/mL	inhibition		H37Rv	24%
CO[C@H]1/C=C/O[C@@]2(C)Oc3c(C)c(O)c4c(O)c(cc(OCC(=O)N5CCCC5)c4c3C2=O)NC(=O)/C(C)=C\C=C\[C@H](C)[C@H](O)[C@@H](C)[C@@H](O)[C@@H](C)[C@H](OC(C)=O)[C@@H]1C				MIC		H37Rv	0.01 µg/mL
CC(C)CC(NC(=O)C(Cc1c[nH]c2ccccc12)NC(=O)OC(C)(C)C)C(=O)NN	BACTEC		12.5 µg/mL	inhibition		H37Rv	3%
Cc1c(Cn2cnc3c(C(=O)NCCF)cccc32)ncnc1N(C)C	visual reading / absorbance			MIC80		H37Rv	<0.39 µM